# HIV-1 5' UTR: effect of mutations on RNA dimer formation

Reference: Ye et al. 2022, doi:10.1038/s41594-022-00746-2.

The 5' region of HIV-1 NL4-3 RNA (positions 1-437):
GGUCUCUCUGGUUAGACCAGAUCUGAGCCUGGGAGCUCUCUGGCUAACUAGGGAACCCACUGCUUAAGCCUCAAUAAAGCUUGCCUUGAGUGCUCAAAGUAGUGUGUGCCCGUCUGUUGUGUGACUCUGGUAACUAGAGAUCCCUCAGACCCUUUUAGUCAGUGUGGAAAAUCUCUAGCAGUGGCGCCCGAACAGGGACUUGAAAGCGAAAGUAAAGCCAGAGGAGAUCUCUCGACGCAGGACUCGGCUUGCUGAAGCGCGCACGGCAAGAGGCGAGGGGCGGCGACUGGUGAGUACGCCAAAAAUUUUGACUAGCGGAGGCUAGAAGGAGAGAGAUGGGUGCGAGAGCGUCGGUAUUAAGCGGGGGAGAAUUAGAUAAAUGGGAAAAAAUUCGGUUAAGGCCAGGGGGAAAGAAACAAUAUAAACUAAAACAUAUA

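Randomly mutated transcripts starting with one, two or three G (1G, 2G, 3G), capped or uncapped, were folded for 30 min at 37 °C. Monomer and dimer bands were cut from native gels after folding in high salt (300 mM KCl, 5 mM MgCl2) or low salt (40 mM KCl, 0.1 mM MgCl2). Mutation frequencies in the two bands give Kdimer.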

Scale: median log2 Kdimer over the changes at a position; positive = changes inhibit dimerization, negative = changes enhance it.
One numbering serves 1G, 2G and 3G.
A position is written with its base where known.
The source gives no letters past position 437.

position,domain,2G capped low-salt,1G uncapped low-salt
461,none,0.02,0.05
462,none,-0.04,-0.01
463,none,0.14,-0.01
464,none,0.08,0.00
465,none,0.07,0.17
466,none,0.08,0.10
467,none,0.09,-0.05
468,none,-0.07,0.03
469,none,-0.07,0.00
470,none,0.10,0.02
471,none,0.09,-0.02
472,none,-0.06,-0.01
473,none,0.06,0.01
474,none,0.01,-0.03
475,none,-0.10,0.04
476,none,-0.11,0.00
477,none,-0.15,-0.07
478,none,-0.11,0.02
479,none,-0.06,0.02
480,none,-0.22,0.08
481,none,-0.16,-0.03
482,none,-0.09,0.05
483,none,-0.20,0.12
484,none,0.12,0.08
485,none,0.00,-0.05
486,none,0.04,0.04
487,none,0.04,-0.14
488,none,0.00,0.09
489,none,-0.15,0.01
490,none,-0.05,-0.02
491,none,-0.06,-0.05
492,none,0.07,0.01
493,none,0.13,0.11
494,none,0.13,0.00
495,none,0.10,0.00
496,none,0.04,-0.03
497,none,-0.04,0.03
498,none,-0.06,-0.07
499,none,0.00,-0.02
500,none,-0.12,0.01
501,none,-0.01,-0.17
502,none,0.08,-0.13
503,none,-0.02,-0.03
504,none,0.03,0.07
505,none,0.06,0.14
506,none,0.14,-0.14
507,none,-0.09,0.03
508,none,0.06,-0.23
509,none,0.05,0.01
510,none,0.08,0.05
511,none,0.05,0.04
512,none,-0.03,-0.01
513,none,-0.11,0.07
514,none,-0.10,0.04
515,none,-0.03,0.09